Data from US12036312B2, “Non-aqueous topical compositions comprising a halogenated salicylanilide” (priority 2016, dated 2024).

These compounds were tested on S. aureus (assay: Therapeutic index (LD50 rats / MIC100 S. aureus)). Details: ratio of LD50 in rats to MIC.
Design: species or system Staphylococcus aureus
With `Cc1cc(C(C#N)c2ccc(Cl)cc2)c(Cl)cc1NC(=O)c1cc(I)cc(I)c1O` (stereo not drawn) [Closantel, closantel] the “Ther. Index (LD50,rats/MIC100, S. aureus)” value was 176,000.
For `O=C(Nc1ccc([N+](=O)[O-])cc1Cl)c1cc(Cl)ccc1O` [Niclosamide, niclosamide], the “Ther. Index (LD50,rats/MIC100, S. aureus)” value was 12,500,000.
In the case of `O=C(Nc1ccc(Oc2ccc(Cl)cc2)c(Cl)c1)c1cc(I)cc(I)c1O` [Rafoxanide, rafoxanide], the “Ther. Index (LD50,rats/MIC100, S. aureus)” value is reported as 1,875,000.
